# Values of other authors as cited in article PMC7094737 (Journal of Molecular Biology, 2008).
# Target: SARS macro (Severe acute respiratory syndrome coronavirus, UniProt P0C6X7)
# Details: read-out: affinity for ADP-ribose; cited from earlier work
substance,measurement,value
ADP-ribose,Kd,~24 µM
